Test system: O=[N+]([O-])c1ccc(O[C@@H]2O[C@H](CO)[C@H](O)[C@H](O)[C@H]2O)cc1
Assay: purified protein
Conditions: pH 8.0; 37.0 °C

Question: Which Km does the source give for “Rv1717 (Mycobacterium tuberculosis H37Rv)” here?
Answer: 382 µM

Reference: article PMC7873859
